Laboratory results published in patent US7067500B2, “Betaines as adjuvants to susceptibility testing and antimicrobial therapy” (priority 1997, dated 2006).
Counter-ions that a name gives are not always drawn.

Test system: Mycobacteria (acid fast bacilli: AFB)
Settings: CB-18 processing relative to NaOH

CCCCCCCCCCCCCCCCCC[N+](C)(C)CCCC(=O)[O-] [CB-18, N-(3-carboxypropyl)-N,N-dimethyl-1-octadecanaminium, inner salt] was tested, and the “increase in aggregate culture sensitivity” value was “approximately 46%”, the “increase in culture sensitivity among MOTT disease positive specimens” value was 94.1% and the “reduction in culture sensitivity among MTB disease positive specimens” value was 12.1%.
